Data as given in PubChem BioAssay AID504761 (Drosophila RNAi Screening Center, 2011)
The screen tested about 22,000 reagents; shown is an unselected part of those that have a named target and a result. Of all reagents, 116 (0.52%) are marked active. 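Calls depend on retest data that are not deposited; infection was ranked per plate without normalising between plates; the unit of the infection score is not given.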 Raw values vary from plate to plate and are shown uncorrected. Unmarked entries are inactive. The numbers tell different reagents against one gene apart. Not given: the amount of reagent, the time to read-out.

Aim: 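Insect host genes that dengue virus relies on to spread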 (primary screen)
Cell system: D.Mel-2 cells from Drosophila
Knock-down reagent: long dsRNA against Drosophila genes
Treatment: infection with dengue virus type 2; dose and infection time not stated
Detection: 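Cells stained for dengue envelope protein and imaged; percent of infected cells per well on duplicate plates, ranked by infection, with stained nuclei counted for cell number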
Reading the numbers: infection score: higher = more virus-infected cells; cell count: higher = more cells in the well
Call rule: 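Very low infection ranking in both replicate wells (chance probability at most 0.065), then a retest showing infection dropped 1.5-fold or more at p below 0.05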
Meaning of the calls: active = confirmed: knock-down lowers infection; inactive = not picked or not confirmed

Target gene,reagent,"infection score, replicate 1","infection score, replicate 2","cell count, replicate 1","cell count, replicate 2"
Atg2,1,,15.3,261,6056
CG6184,1,9.13,11.9,6317,6009
NLaz,1,1.78,2.37,5954,6208
yellow-h,1,,,404,363
CG3955,1,3.74,2.71,6066,6095
DopEcR,1,10.2,3.05,6559,6927
CG3764,1,15.7,5.18,4503,6793
CG12343,1,6.82,5.34,6700,6513
NdufA3,1,9.16,19.4,5971,5750
APC7,1,2.85,4.57,6133,6498
APC7,2,8.33,8.27,6437,6565
CG4390,1,4.99,2.3,6067,6474
CG4390,2,0.71,13.2,6439,5392
karr,1,1.5,4.14,6007,5263
CG5107,1,1.98,3.2,6655,6223
svp,1,5.37,3.05,6206,5601
svp,2,10.8,30.6,5459,5229
svp,3,11.3,11.1,6549,6694
rho-6,1,2.66,19.6,1276,5937
rho-6,2,11.5,4.73,5829,529
snz,1,3.53,3.21,6318,6568
GILT3,1,13.3,12.2,5924,5083
CG14488,1,15.2,9.5,6605,6539
NTPase,1,5.04,6.2,6355,5818
NTPase,2,9.91,12.5,4653,6083
Eglp2,1,3.43,11.8,6417,5533

As entered above:
CG14488, infection score, replicate 2 = 9.5
CG4390 #1, infection score, replicate 2 = 2.3
CG3955, infection score, replicate 1 → 3.74
Under “infection score, replicate 1”, CG4390 #2 has 0.71

Next entries follow:
Target gene,reagent,"infection score, replicate 1","infection score, replicate 2","cell count, replicate 1","cell count, replicate 2"
CG12081,1,0.27,3.08,6280,6338
CG10943,1,1.98,1.26,5868,6212
CG10943,2,16.3,20.2,5478,5182
spen,1,1.54,1.09,5079,5045
caly,1,10.1,16.9,6330,6270
Prp18,1,3.6,2.97,5310,5217
RNASEK,1,1.38,6.05,5275,2051
CG7409,1,2.09,11.5,6551,5975
CG7409,2,7.73,7.59,6363,6313
magu,1,7.24,11,5941,6188
Mst98Cb,1,9.8,14.6,4776,6544
Mst98Cb,2,1.55,12.1,5468,5757
Mst98Cb,3,4.58,1.9,5869,6436
